# Measured values as given in article PMC6610081.
# Protein sequences, listed by entry. Tags and fused reporters are not part of them.
# UniProt G3XCV0, whole entry: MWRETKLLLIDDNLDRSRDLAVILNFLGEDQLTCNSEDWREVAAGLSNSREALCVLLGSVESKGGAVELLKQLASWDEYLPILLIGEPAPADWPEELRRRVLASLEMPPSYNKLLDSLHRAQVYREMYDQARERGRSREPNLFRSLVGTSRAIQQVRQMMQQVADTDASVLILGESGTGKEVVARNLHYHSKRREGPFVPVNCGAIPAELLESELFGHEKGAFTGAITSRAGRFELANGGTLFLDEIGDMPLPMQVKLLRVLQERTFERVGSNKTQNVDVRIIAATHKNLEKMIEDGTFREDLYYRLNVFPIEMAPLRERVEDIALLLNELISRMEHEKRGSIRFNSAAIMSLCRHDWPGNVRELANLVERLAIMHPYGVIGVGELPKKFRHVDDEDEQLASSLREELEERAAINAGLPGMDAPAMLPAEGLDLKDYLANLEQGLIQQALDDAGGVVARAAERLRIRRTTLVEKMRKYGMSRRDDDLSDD
# Columns and labels:
# Experiment in all cases: EMSA
# [1] = molecular target: FleQ (Pseudomonas aeruginosa PAO1) (UniProt G3XCV0); details: EMSA: 40 ng PCR probe in 20 ul, 10 mM Tris-HCl pH 7.4, 50 mM KCl, 5 mM MgCl2, 10% glycerol, room temperature 20 min, 6% PAGE; recombinant protein; protein details: His (pMCSG19); probe letters rebuilt from the primers and the genome
# [2] = molecular target: T1, AlgR (Pseudomonas aeruginosa PAO1) (UniProt P26275); details: EMSA: 40 ng PCR probe in 20 ul, 10 mM Tris-HCl pH 7.4, 50 mM KCl, 5 mM MgCl2, 10% glycerol, room temperature 20 min, 6% PAGE; recombinant protein; probe letters rebuilt from the primers and the genome
# T1 sequence (looked up, limits assumed): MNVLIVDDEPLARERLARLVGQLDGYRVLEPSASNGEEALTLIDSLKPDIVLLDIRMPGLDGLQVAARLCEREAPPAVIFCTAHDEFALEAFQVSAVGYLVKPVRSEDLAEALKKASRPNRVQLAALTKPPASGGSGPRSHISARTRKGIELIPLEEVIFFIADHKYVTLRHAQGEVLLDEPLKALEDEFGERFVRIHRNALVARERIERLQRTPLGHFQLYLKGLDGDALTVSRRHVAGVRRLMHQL
# [3] = molecular target: T2, PhoB (Pseudomonas aeruginosa PAO1) (UniProt P23620); details: EMSA: 40 ng PCR probe in 20 ul, 10 mM Tris-HCl pH 7.4, 50 mM KCl, 5 mM MgCl2, 10% glycerol, room temperature 20 min, 6% PAGE; recombinant protein; protein details: His (pMCSG19); probe letters rebuilt from the primers and the genome
# T2 sequence (looked up, limits assumed): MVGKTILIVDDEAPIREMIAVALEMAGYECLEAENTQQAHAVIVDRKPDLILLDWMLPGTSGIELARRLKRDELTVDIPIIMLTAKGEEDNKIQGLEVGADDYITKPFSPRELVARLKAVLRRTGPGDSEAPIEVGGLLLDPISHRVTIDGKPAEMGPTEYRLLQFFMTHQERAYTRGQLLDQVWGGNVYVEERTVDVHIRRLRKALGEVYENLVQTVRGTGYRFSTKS
# [4] = molecular target: T3, GacA (Pseudomonas aeruginosa PAO1) (UniProt Q51373); details: EMSA: 40 ng PCR probe in 20 ul, 10 mM Tris-HCl pH 7.4, 50 mM KCl, 5 mM MgCl2, 10% glycerol, room temperature 20 min, 6% PAGE; recombinant protein; protein details: His (pMCSG19); probe letters rebuilt from the primers and the genome
# T3 sequence (looked up, limits assumed): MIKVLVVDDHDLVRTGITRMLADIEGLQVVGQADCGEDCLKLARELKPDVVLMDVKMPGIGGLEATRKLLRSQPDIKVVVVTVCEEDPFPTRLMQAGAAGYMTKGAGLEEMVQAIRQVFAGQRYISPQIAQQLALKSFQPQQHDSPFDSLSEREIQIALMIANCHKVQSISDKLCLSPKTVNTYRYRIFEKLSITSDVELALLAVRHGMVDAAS
# [5] = molecular target: T4, ExsA (Pseudomonas aeruginosa PAO1) (UniProt P26993); details: EMSA: 40 ng PCR probe in 20 ul, 10 mM Tris-HCl pH 7.4, 50 mM KCl, 5 mM MgCl2, 10% glycerol, room temperature 20 min, 6% PAGE; recombinant protein; protein details: His (pMCSG19); probe letters rebuilt from the primers and the genome
# T4 sequence (looked up, limits assumed): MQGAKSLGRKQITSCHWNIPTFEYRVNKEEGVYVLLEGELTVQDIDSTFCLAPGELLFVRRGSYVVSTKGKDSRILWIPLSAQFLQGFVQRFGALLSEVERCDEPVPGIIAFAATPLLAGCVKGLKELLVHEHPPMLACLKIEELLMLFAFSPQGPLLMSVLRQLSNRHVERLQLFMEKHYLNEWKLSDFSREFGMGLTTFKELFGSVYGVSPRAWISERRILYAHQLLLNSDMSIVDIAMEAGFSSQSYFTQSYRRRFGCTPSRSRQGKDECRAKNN
Sequence,binding result [1],binding result [3],other results
GGGCCGCTGCTCCGCGATTCCGCGGTAGGGGAAAAAGCTCGTTCCATCTCGCGACCTACCCGAAACGACTACATCCAAAGGTGTAATTCTACATTGCCATCACTTCGATCGTCGGACAATAGCCGCGTTCCAGACGCCTTGCACAGGTGACGAACGGGACTCGAAGCGGCCTGGTCTGCATGGCCGGGTGATGGGCGAGTTCCTTGATGCGGGGCGGCGGCTGTTTGGCGCAGGACAAAAAAAGCCCCGCCGGGTAGGCGAGGCTCAGGGGGAGAACAGCGTGCGGGGGCTCGCTGTCCGGGATGAATCGTCGTGGTGCGC (double strand) [PA3662 promoter],binds,–,–
TCAGCCGCCGGCGGCTTCCGGCCGCCGGCCTTCGCTCGACTGCCTGGGTCGAGGGCCGTGCGGCGCGTCCTCCGGTTATTTGGCGAACCCCGGGAGTACGGATTGCCTGGCGCGGATCACTCGTCCCTGTCCGCCTTATCGATAAGTCGGTTCCGAACTCTTTTTCGGTAGTTCATTCAGATGGATGAGTGAAGAGGGCAGATGGAAAGTATCTGCTCGGGAATTCAATGTTCAGAAGAGTGGAGAAGTATTACTTTCTCACTGTTCTTCAGGTACGTTCCGGCTGCCCGCCGTTTCTTATTGGATGAAGTCACTCCTGTGCCTCTGCGCTCGCGCCGCACGGAGAATATCGTCGAGAGGTTCCTCAATAGTGAGTGGAGCTGGCTGACGCGGTATCTCGGTTGTCGGGCGGAGTTGTTCTATATGTTCGAACTTGGCTTTGCTCGTTGTTTTAAGTTTGCGGAATAACCTCTGGAACTATTCATATGAATTTTTGAAAGTTTGGTTTACCTGAGAGATTTATGAGTTGACCTTGTCACGATGGCAGGACTCATGGTTCGCAGGAGTCAACAAACCAGGAGGTTGCG (double strand) [PA3520 promoter],binds,–,–
GCCGGGCTACAACCCGGACAGCGCCGTGCAGGTGCTCGGCGCCGGAGCCCTCGGCGAACAGGCGCGCAGCCAATTGACCGATGAAGAGCGCGGCAACCTGATCCTGTAAGGCACCGCCGCGGAGGCACGATACCCGCCAGGCCCTCCCCACGGAGGGCCTTTTTTTCGGCGAACTTCCGAGGTGCTGGTCGATTCTCGGGTGAATGCCCGTTCGTCCCCGCCGGCGGCGCGCGAACGGCCGGTCGCATGAAGTTTTCATGACAAAAGTTCGGTGGTGCGGCGGGGTTGCCGTCAAACAGGTGTGAATGAGGAAAACGGAATTCAGTGGTGAAAGGCAGGGACGGGAACGAAAGGAATCGGCCATTTCCCGGTTGCGCTGACCGGTTGCTGGAAATGAGCGTGTCGTTCGAGAAAGACGCGTTCCGCTCTGAAACAAGAGAACAGTATCCGCTAACGGCCGTGGTCACTCCGGTGAATACGGCGAAGGACGGTGAGTATTG (double strand) [phdA promoter],–,–,binding result [2]: binds
CCGCGAGGCGGTGCGCAGCGTGCAGGCAGCAGGTGCCCTAGCGGATCAGACTGTTAAGGTTGGGAAGGATCAGGATGACTGTGGTGGCGAAGACGATGAGGCTCGCTTGCCGCCATCTTTTTGGCTGCTCGTTCAACATGGCCTGTCTGCCTTTCTTGTTGTCGGGTGGCTGCCTGCTCCGCGCTACGGCCCGGCGGAACGGCTTGCCACGCAGTGGCGTACTCTTCGGTCGGCCCGGCATCCCCGGCGTCGACCTCCCTTTCGAACGCTTGCATGAATCAGTCTAAGCCCCGGCCTGCGCGGGCTTAGACCACTTGGATACAAGCTGCTGCGGTCTAGACATATTCCCTCTATATGACAGCGTGGTGACGGCTCTGGCGTGCGTCTCGACCGTTCGTCCGGTGTCCGGGTTTCCGGTCGAAAGATGGCATGGTGCTATCTTCCCGGCGTTGCAGGCTGAGCTGGGCGGTCAATCAGCCTGAGCGGTTCGGTCATTGTCCCGCCGGCGAGCCTGTTTAAGGTAGGCGGAGGCCCGCTCGGCCGGACGAGAACAGGATAAGAGAGACCGCC (double strand) [PA1736 promoter],–,binds,–
CGGTTACCTCTTGCACGCGATGCTATCGCCCTGAAGGCGTCAGGGCTTCGTTATTCCATGCGGATGTCGTTTCGGTTGATTTTCGTACGCTGGGCTTCCGGCAATCACTACCTTGCGTAAGGGGTTGACAGGAGCGGGGTCTGCGTATAGCCGCGCCTCCGCGACGCCGTGCCGATCGGTCGTGCATGCTTGCCGTGGCCCGGCTGAGCACTGCCGTCCCGGCCACTCTCGCCGGGGTGGCTGCGCCTGGATGATCGTCGTGGGCGGTGGTGGCGCGGGCCGGTCGCCCTGAGCTTCAGGCGCCATCGCCGCTTGCCGGCGCTCGGGAGGCCGCTGGCCAAGGAAAACCGTAGCGCCGCGGCGGGCGGCGGCTAGCGGGGATTTCCGGCCACGCGTGCCGTGCCCGGGCCACGCTTGCCTTCCCGGCGCGCCGGACTCCCGGTGGCCTGGAGGACAGGAAAAGCGAGCGGCGAGGTGTCGGCGAGCAGGGTCAACTCGATCTTCTGATAGGGTCGGTGGGCTGTCCGGGGCGGCTAGGATGGACATTTTCATCGTCTCGGGCAGGCCTGTCGCGACCGCGCGAAGTCGCGACGGATGCCGCTGCTAAGGAGCAACGG (double strand) [pqsH-cdpR intergenic region],–,–,binding result [4]: binds
GGCGGCACAATATTGACCTGGATCAATCGCCCGGACGGGCTTTTTCGGCCAGGTGCATGACACTGACCCAGGTCAAGTTTCGCAGGAGGGAGAATGCGGTCGGACGCCGCAGATAACCGGGAAAAACCTGCCCGATCGCCGCACGTTGCCCGCAGGAATGCGCCGCCGGCGAACGCGGCGGCGGAGGCTTCAGCGCTTCTTCGGCTTGCCTTTCGGCTTCTTCCGCGGCTTGCCCAGCGGCAACACCTGTTCGAAGGCCTTGCGGACCTCCTGCAGGCGCTTCTCGTGCACGTCGTGGATGCGCTTGTCGCGCTCGGCGCTGAGGTCGATCACCTTGTCGTCGTCGTTCATGGCTGGGGGTACACCAGGCGGAAGGTCAGGTTCAAACG (double strand) [phrS promoter],–,–,binding result [5]: binds
GCTTCTTCTCCACAGTAAACGCGGCCGGGCCGCAGGCGCGGCGCTGGTGGGCGCCGGTACGAACCGGGCGGCGGGACCTTCTGGGGTCGTCCCGGGCGCCGCGGTTCGGATGTGGCCATTTCGCCTGGGAGATGTATCGGGGGTGTATCGCCCGACACGTGGATTTGTACGCCGGAGGTATCGAAACCGCGCATGGATACAAAGCGATACGCAATCGAGCGCGGGCATGCCGACGAAGTGCCGGGCATCTCTCACTCCCGCCGGCCCATCTCGGCTACCGTTAGGAGACAGCCACCTGGCCCAGTCTCGAGGTCGAGCCCATC (double strand) [PA4108 promoter],–,binds,–
GGGTATCTCCTTTGGCACGGTGGATGCCCGAGGAGACAGGTTGGGAGGGAGTTCACCGGACCGCCGCCTCGGGCGGTTCGGGAATGCAGCGACGCATCTACCGCCTCAATGAGGGAGCAGATAGGCGTAATAGCGCTTGAAGGTCAGGGCTGCACGATTCATGCGCGGCACTCTACGCGCCTGTGCCGGGCTGTCAAGACTGGAAAGCGCCTCGACACGAACCGAAGCACTTCCCCGCAACAGAAGCGCAGCCTGGGAAAGTTTGCCCGCTAGTTATCCGCACAAATTTATGACGCCGGTTTCTCTACTTTGAAAAACAACGCAAGACCGGACATGGACTTCAATAACTCGACCGGAAGAAACCTATCAGCAAGGCAGTTGAATTTTTTCCGAAAGCAATAATTCGATACTTTTCTGGATTGGCGCATCATCTCATAAAAATAGCGAACCGCTTCCCAGTACCCACGAATATCAATGGATCAGCAATATCCAGATGCTTATCGCGGCATTCGAAAAAACATCGACCAATTCCACTGACAGAATATCGGCGTCATTTGCCTAGCATGGATATTCCAAGTTCACCCTATCAACTTCCCAGATTGACACTCTCGCCGGCAGATCAGTAATTTTCAGCGACCAGCCGGCAAAGTACTTTTCCAGAGCGGCTGGCAACCGATAGTCACTCTATCTTCGCAAACCGATGTTTATGCGAGAGGGCCGGCTATCGCTCAAAACTTGATTGATGAAGGAATAGCGCC (double strand) [PA4139 promoter],binds,binds,–
CGAACACCTCGTATCCAGCGGAATCGGGGCGGAACGGCCGCCCGGCGGAAGTTGCATCGCTACAAGGTGAGCGTCCGACAGCGGACCACCCACCCGCCCCGACGCTGGGGCGAAACGACGAAGACGCCACGGGCCTCTGCCGGGAAGGAGAGGCCGCGCGACGTCTTTGTCGGGGATGGGTAACCGCCGTTGGCTACCGTCAGGCAGGACGTAGCAAGCTCTTTGCCAAGTTGTCGAAAGCGCGGCGTAGAGCGGTTGCAGGGACAACCATGGCGTCGGGCGTGCACGCCGCGGTGGCAGGCGTCGGGGGCTTGCACAGGGCTGGGGCGGCGCGTCCGTGCGCCGTCGGCGGT (double strand) [nasA promoter],–,–,binding result [4]: binds
AGCGTCGACCCGGCCCCCTGGCGGAGCGATCCGCCAGGGGGCTGTTTTTTTCCGACAACCTACGGGATTGACTTTCCCTGGCCCTCCCCATGTTTCCATGAAGTTTCCGGAATATTCACGGGGAGCGGACATCGAGTATTAATGAACCCTTAAAGAAACAGGACTCGGGTTATTAATAAAAGCCACTCAGAAAACACCCGAGATCCTTTCCAACCCTGCAAGCCCCTGAAAAAGAGGCTTCCGGCTTTATCCTCCAGTTTCTTCGAGTTCGTTCAGTCTTCATTCAGCCGTTGTTAAGCGAGTCTTAACAAACGTTCAGGCAGCATTCAGCGACATATAAATAACCTCTTCGTACCGCCCTCCCAGTACCGAGGCTTCATTAC (double strand) [arnB promoter],binds,–,–

# Construct, isoform or probe ends are uncertain for at least one entry. For some assays here: Where a protein sequence is shown, tags need not be part of it.
